Compound potency records, mixed from different reports. Data source: NIAID ChemDB in PubChem.

All rows: growth or infection tests; species: HIV-1; cells: MT-4; endpoint: EC50

Lines come from different laboratories, so protocols vary. ECn: concentration that inhibits the pathogen or its effect by n%. Blank or dashed fields: not listed here.

structure	strain	mutations	read by	value
CCN(CC)C(=O)N1CCN(C(=O)N(C)CCN2CCCCC2)CC1	NL4-3		MTT	11.2 µg/mL
CC(=O)Nc1cccc2c1nc(-c1c(F)cccc1F)n2Cc1c(F)cccc1F		RT-K103N	cytopathic effect / MTT	>20 µM
Cc1cc(C)cc(S(=O)(=O)c2c(C(=O)N[C@H](C)C(=O)NCc3ccncn3)[nH]c3ccc(Cl)cc23)c1	NL4-3	K103N/Y181C	cytopathic effect / MTT / absorbance	>25.5 µM
CCCCOC(=O)N1CCN(C(=O)N(CC)CC)CC1	NL4-3		MTT	>58.4 µg/mL
CC1CCCCN1CCCNCCc1ccc(CNCCCN2CCCCC2C)cc1			MTT	0.114 µM
Cc1ccnc2c1NC(=O)c1cccnc1N2C1CC1	NL432		cytopathic effect / MTT	0.0068 µg/mL
Cc1cn([C@H]2C[C@H](N=[N+]=[N-])[C@@H](CO)O2)c(=O)[nH]c1=O			MTT	0.1 µM
Nc1cccc2c1nc(-c1c(F)cccc1F)n2Cc1c(F)cccc1F		RT-L100I	cytopathic effect / MTT	0.3 µM
CN1CCN(CCCNCCc2ccc(CCNCCCN3CCN(C)CC3)cc2)CC1			MTT	>81.02 µM
CCCCOC(=O)N1CCN(C(=O)N(C)C)CC1	NL4-3		MTT	>39.3 µg/mL
C#Cc1ccc(Nc2nccc(Oc3c(C)cc(-c4cn(Cc5cccc(C(=O)OC)c5)nn4)cc3C)n2)cc1	IIIB	F227L and V106A	MTT	≥2.267 µM
Nc1nc(=O)n([C@H]2CO[C@@H](CO)S2)cc1F	HxB2D(RT-D67G)	RT-D67G	RT activity	25 µM
COC(=O)c1cccc2c1nc(-c1c(F)cccc1F)n2Cc1c(F)cccc1F		RT-Y188H	cytopathic effect / MTT	0.26 µM
CC1CCCCN1CCCNCc1ccc(CCNCCCN2CCOCC2)cc1			MTT	1.695 µM
CC(C)(C)NC(=O)[C@@H]1CN(Cc2cccnc2)CCN1C[C@@H](O)C[C@@H](Cc1ccccc1)C(=O)N[C@H]1c2ccccc2C[C@H]1O	IIIB		cytopathic effect / MTT	0.014 µg/mL
O=C(OC[C@H]1O[C@@H](OC(=O)c2ccccc2)[C@H](OC(=O)c2ccccc2)[C@@H](O)[C@@H]1O)c1ccccc1	IIIB		cytopathic effect	>100 µg/mL
c1cc(CN2CCCNCCNCCCNCC2)ccc1CN1CCCNCCNCCCNCC1	NL4-3		MTT	0.001 µg/mL
C#Cc1ccc(Nc2nccc(Oc3c(C)cc(-c4cn(-c5ccc(C(=O)O)cc5)nn4)cc3C)n2)cc1	IIIB	K103N	MTT	0.23 µM
CC(C)(C)NC(=O)[C@@H]1C[C@@H]2CCCC[C@@H]2CN1C[C@@H](O)[C@H](Cc1ccccc1)NC(=O)[C@H](CC(N)=O)NC(=O)c1ccc2ccccc2n1	IIIB		cytopathic effect / MTT	0.0037 µg/mL
C#Cc1ccc(Nc2nccc(Oc3c(C)cc(-c4cn(Cc5ccc(O)cc5)nn4)cc3C)n2)cc1	IIIB	F227L and V106A	MTT	>2.1 µM
Cc1cn([C@H]2C[C@H](N=[N+]=[N-])[C@@H](CO)O2)c(=O)[nH]c1=O	HXB2D		RT activity	0.014 µM
Nc1nc2c(ncn2[C@@H]2OC[C@H](/C=C/P(=O)(O)O)[C@H]2F)c(=O)[nH]1	IIIB		MTT	66.8 µM
CC(C)[C@H](NC(=O)OCc1ccccc1)C(=O)N[C@@H](Cc1ccccc1)[C@H](O)[C@@H](CO)[C@H](Cc1ccccc1)NC(=O)[C@H](CC(N)=O)NC(=O)OCc1ccccc1	IIIB			>10 µM
C1CNCCNCCCNCCNC1	IIIB		cytopathic effect / MTT	399 µM
CCN(CC)C(=O)N1CCN(C(=O)N2CCCCC2)CC1	NL4-3		MTT	>125 µg/mL
C#Cc1ccc(Nc2nccc(Oc3c(C)cc(-c4cn(Cc5ccc(S(N)(=O)=O)cc5)nn4)cc3C)n2)cc1	IIIB	E138K	MTT	0.21 µM
Nc1nc(=O)n([C@@H]2CO[C@H](CO)S2)cc1F	HxB2D(RT-D67G)	RT-D67G	RT activity	30 µM
CC(C)[C@H](NC(=O)OCc1ccccc1)C(=O)N[C@@H](Cc1ccccc1)[C@H](O)[C@@H](CO)[C@H](Cc1ccccc1)NC(=O)OC(C)(C)C	IIIB			>10 µM
C#Cc1ccc(Nc2nccc(Oc3c(C)cc(-c4cn(-c5ccc(C(=O)OC)cc5)nn4)cc3C)n2)cc1	IIIB	L100I	MTT	1.04 µM
CCn1nnc2c(C)nn(C)c21			cytopathic effect / MTT	>200 µM
CN(C)C(=O)N1CCN(C(=O)N2CCCCC2)CC1	NL4-3		MTT	>125 µg/mL
CCNC(=O)n1nnc2c(C)nn(-c3ccccc3)c21			cytopathic effect / MTT	>81 µM
C[C@@H]1O[C@@H](Oc2c(-c3ccc(O)c(O)c3)oc3cc(O)cc(O)c3c2=O)[C@H](O)[C@H](O)[C@H]1O	IIIB		cytopathic effect	>100 µg/mL
Nc1ccn([C@H]2CC[C@@H](CO)O2)c(=O)n1	HxB2D(RT-D67G)	RT-D67G	RT activity	0.08 µM
Cc1cc(C)cc(S(=O)(=O)c2c(C(=O)NC(C)C(N)=O)[nH]c3ccc(Cl)cc23)c1		K103N	MTT	0.014 µM
C[C@@H]1O[C@@H](Oc2c(-c3cc(O)c(O)c(O)c3)oc3cc(O)cc(O)c3c2=O)[C@H](O)[C@H](O)[C@H]1O	IIIB		cytopathic effect	>100 µg/mL
CCCNC(=O)n1nnc2c(C)nn(-c3ccccc3)c21			cytopathic effect / MTT	>74 µM
Nc1nc2c(ncn2[C@@H]2OC[C@H](CCP(=O)(O)O)[C@H]2F)c(=O)[nH]1	IIIB		MTT	47.1 µM
Fc1cccc(F)c1Cn1c(-c2c(F)cccc2F)nc2c(Br)cccc21		RT-L100I	cytopathic effect / MTT	0.3 µM
CC(C)[C@H](NC(=O)OCc1ccccc1)C(=O)N[C@@H](Cc1ccccc1)[C@@H](O)[C@H](CO)[C@H](Cc1ccccc1)NC(=O)[C@H](CC(C)(C)C)NC(=O)OCc1ccccc1	IIIB			2.5 µM
Cc1cc(C)cc(S(=O)(=O)c2c(C(=O)NCC(=O)NC(C)c3ccncc3)[nH]c3ccc(Cl)cc23)c1	NL4-3	K103N	cytopathic effect / MTT / absorbance	0.305 µM
O=c1[nH]cnc2c1ncn2[C@H]1CC[C@@H](CO)O1	IIIB		cytopathic effect / MTT	0.55 µg/mL
C#Cc1ccc(Nc2nccc(Oc3c(C)cc(-c4cn(Cc5ccc(C(N)=O)cc5)nn4)cc3C)n2)cc1	IIIB	F227L and V106A	MTT	>13.84 µM
CC(C)(C)C(=O)SCCOP(=O)(COCCn1cnc2c(N)ncnc21)OCCSC(=O)C(C)(C)C	IIIB		MTT	0.81 µM
C=C1[C@H](CO)[C@@H](O)C[C@@H]1n1cnc2c(=O)[nH]c(N)nc21	IIIB	K103N	MTT	0.003 µM
C1CNCCNCCCN(CCCN2CCCNCCNCCCNCC2)CCNC1	RF		cytopathic effect / MTT	0.37 µM
c1cc(CNCCCCN2CCCCC2)ccc1CNCCCCN1CCCCC1			MTT	0.72 µM
CC(C)[C@H](NC(=O)OCc1ccccc1)C(=O)N[C@@H](Cc1ccccc1)[C@@H](O)[C@H](CO)[C@H](Cc1ccccc1)NC(=O)[C@H](CC(N)=O)NC(=O)OCc1ccccc1	IIIB			>10 µM

The last 5 rows once more:

structure,strain,mutations,read by,value
CC(C)(C)C(=O)SCCOP(=O)(COCCn1cnc2c(N)ncnc21)OCCSC(=O)C(C)(C)C,IIIB,,MTT,0.81 µM
C=C1[C@H](CO)[C@@H](O)C[C@@H]1n1cnc2c(=O)[nH]c(N)nc21,IIIB,K103N,MTT,0.003 µM
C1CNCCNCCCN(CCCN2CCCNCCNCCCNCC2)CCNC1,RF,,cytopathic effect / MTT,0.37 µM
c1cc(CNCCCCN2CCCCC2)ccc1CNCCCCN1CCCCC1,,,MTT,0.72 µM
CC(C)[C@H](NC(=O)OCc1ccccc1)C(=O)N[C@@H](Cc1ccccc1)[C@@H](O)[C@H](CO)[C@H](Cc1ccccc1)NC(=O)[C@H](CC(N)=O)NC(=O)OCc1ccccc1,IIIB,,,>10 µM